Anti-infective test results gathered from many reports (values: NIAID ChemDB through PubChem).

Shared fields: growth or infection tests; agent: Candida albicans

Conditions beyond the fields shown may differ between rows. An empty or dashed field is not shown. Inhibition is in % at the dose shown (toxicity tests: loss of growth or viability). ECn: concentration that inhibits the pathogen or its effect by n%. a–b is a range or a potency band. MIC50, MIC90 and the like: level of inhibition, or share of isolates inhibited.

SMILES,strain or isolate,method,conditions,measure,tested at,value
Cc1ccc(C(C)C)cc1O,H37,,,MLC,,0.16–0.32 µg/mL
CC(C)(O)c1cn(-c2ccc([N+](=O)[O-])cc2)nn1,URM 4388,broth dilution,,inhibition,2048 µg/mL,0%
C[C@@H](N1CCN(Cc2cn(Cc3ccc(C(F)(F)F)cc3)c3ccccc23)CC1)[C@](O)(Cn1cncn1)c1ccc(F)cc1F,ATCC 90028,resazurin,,MIC80,,0.125 µg/mL
COC(=O)[C@H]1[C@@H]2C[C@@H](O[C@@H]3O[C@H](C)[C@@H](O)[C@H](N)[C@@H]3O)/C=C/C=C/C=C/C=C/C=C/C=C/C=C/[C@H](C)[C@@H](O)[C@H](C)[C@H](C)OC(=O)C[C@H](O)C[C@H](O)[C@@H](O)CC[C@H](O)C[C@H](O)C[C@](O)(C[C@@H]1O)O2,10 isolates,broth dilution,pH 4,EC90,,16 µg/mL
NCCCC[C@H](NC(=O)[C@@H](N)CCCCN)C(=O)N[C@@H](CCC(N)=O)C(=O)N[C@@H](CCCN=C(N)N)C(=O)O,ATCC 10231,,,inhibition,100 µM,0%
C=CCc1ccc(O)c(OC)c1,3021,turbidity,,MIC90,,500 µg/mL
C[C@@H](N1CCN(Cc2cn(Cc3ccc(F)cc3F)c3ccccc23)CC1)[C@](O)(Cn1cncn1)c1ccc(F)cc1F,ATCC 90028,resazurin,,MIC80,,0.125 µg/mL
CC[C@@H]([C@H](C)O)n1ncn(-c2ccc(N3CCN(c4ccc(OC[C@@H]5CO[C@@](Cn6cncn6)(c6ccc(F)cc6F)C5)cc4)CC3)cc2)c1=O,15 isolates,broth dilution,pH 7,EC90,,0.03 µg/mL
C[C@H]1[C@H](O)[C@@H](C)/C=C/C=C/C=C/C=C/C=C/C=C/C=C/[C@H](O[C@@H]2O[C@H](C)[C@@H](O)[C@H](N)[C@@H]2O)C[C@@H]2O[C@](O)(C[C@@H](O)C[C@@H](O)CC[C@H](O)[C@@H](O)C[C@@H](O)CC(=O)O[C@H]1C)C[C@H](O)[C@H]2C(=O)O,12 isolates,,,MFC90,,1 µg/mL
C[C@@H](N1CCN(Cc2cn(Cc3ccc(Cl)cc3Cl)c3ccccc23)CC1)[C@](O)(Cn1cncn1)c1ccc(F)cc1F,ATCC 64548,resazurin,,MIC80,,0.25 µg/mL
CC(C)(O)c1cn(-c2cccc3ccccc23)nn1,URM 4819,broth dilution,,inhibition,2048 µg/mL,0%
C[C@@H](N1CCN(Cc2cn(Cc3ccc(Cl)cc3)c3c(Cl)cccc23)CC1)[C@](O)(Cn1cncn1)c1ccc(F)cc1F,ATCC MYA-1003,resazurin,,MIC80,,>128 µg/mL
OC(CN1CCN(c2ccc(OCc3ccncc3)cc2)CC1)(Cn1cncn1)c1ccc(F)cc1F,4,,,MIC80,,≤0.031 µg/mL
CC(C)N=C(N)c1ccc2nc(-c3ccc4c(c3)Cc3cc(-c5nc6ccc(C(N)=NC(C)C)cc6[nH]5)ccc3-4)[nH]c2c1,Isolate 1866,,,MFC,,1.56 µg/mL
C=CCc1ccc(Cn2cc(CN3CCN([C@H](C)[C@](O)(Cn4cncn4)c4ccc(F)cc4F)CC3)c3cccc(F)c32)cc1,ATCC 90028,resazurin,,MIC80,,1 µg/mL
CCC(C)CC(C)CCCCCCCCC(=O)N[C@H]1C[C@@H](O)[C@H](NCCN)NC(=O)[C@@H]2[C@@H](O)CCN2C(=O)[C@H]([C@H](O)CCN)NC(=O)[C@H]([C@H](O)[C@@H](O)c2ccc(O)cc2)NC(=O)[C@@H]2C[C@@H](O)CN2C(=O)[C@H]([C@@H](C)O)NC1=O,15 isolates,broth dilution,pH 4,EC90,,0.25 µg/mL
Cc1ccc(-n2cc(C(C)(C)O)nn2)cc1C,URM 4987,broth dilution,,inhibition,2048 µg/mL,0%
C=CCn1cc(CN2CCN([C@H](C)[C@](O)(Cn3cncn3)c3ccc(F)cc3F)CC2)c2ccc(Cl)cc21,ATCC 36082,resazurin,,MIC80,,0.125 µg/mL
CC(=O)N1CCN(c2ccc(OC[C@H]3CO[C@](Cn4ccnc4)(c4ccc(Cl)cc4Cl)O3)cc2)CC1,10 isolates,broth dilution,pH 6,EC90,,0.25 µg/mL
CC(C)(O)c1cn(-c2ccc3ccccc3c2)nn1,URM 4819,broth dilution,,inhibition,2048 µg/mL,0%
C[C@@H](N1CCN(Cc2cn(Cc3ccc(C(F)(F)F)cc3)c3c(F)cccc23)CC1)[C@](O)(Cn1cncn1)c1ccc(F)cc1F,ATCC 36082,resazurin,,MIC80,,0.125 µg/mL

The first 2 rows once more:

| SMILES | strain or isolate | method | conditions | measure | tested at | value |
|---|---|---|---|---|---|---|
| Cc1ccc(C(C)C)cc1O | H37 |  |  | MLC |  | 0.16–0.32 µg/mL |
| CC(C)(O)c1cn(-c2ccc([N+](=O)[O-])cc2)nn1 | URM 4388 | broth dilution |  | inhibition | 2048 µg/mL | 0% |